Reference: PubChem BioAssay AID1259414 (Drosophila RNAi Screening Center, 2018)
The screen tested about 24,000 reagents; this is a random part of those with a known target gene and a result. In the full data, about 1,210 (5%) got an active call. 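Inactive calls also include excluded dsRNAs with several or no targets, genes unexpressed in JW18, and well A1, regardless of score.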 Entries without a mark were called inactive. The numbers tell different reagents against one gene apart. Reagent sequences are not shown.

Purpose: 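Genome-wide screen for host control of endosymbiont load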 (primary screen)
Cells: Drosophila JW18 cells infected with Wolbachia
Reagents: long dsRNA against Drosophila genes, 0.25 µg dsRNA per well of a 384-well plate
Timing: 5 days
Challenge: cells persistently infected with Wolbachia before knock-down; no added drug
Detection: 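Imaged fluorescence in situ signal for Wolbachia 23S rRNA per DAPI-counted host cell, given as a robust z-score within each plate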
Direction: Wolbachia per cell robust z: higher = more Wolbachia per host cell than the plate typical
Hit rule: 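Active if absolute robust z reaches 1.5 in two or more of three replicates, leaving out multi- or no-target dsRNAs, genes unexpressed in JW18 and A1 wells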

{"target gene": "eas", "dsRNA no.": 1, "Wolbachia per cell robust z, rep 1": 0.847, "Wolbachia per cell robust z, rep 2": 1.28, "Wolbachia per cell robust z, rep 3": 1.09}
{"target gene": "eas", "dsRNA no.": 2, "Wolbachia per cell robust z, rep 1": -0.928, "Wolbachia per cell robust z, rep 2": -0.162, "Wolbachia per cell robust z, rep 3": 0.784}
{"target gene": "Golgin84", "dsRNA no.": 1, "Wolbachia per cell robust z, rep 1": -0.0603, "Wolbachia per cell robust z, rep 2": -0.286, "Wolbachia per cell robust z, rep 3": -0.138}
{"target gene": "mRpL33", "dsRNA no.": 1, "Wolbachia per cell robust z, rep 1": -0.333, "Wolbachia per cell robust z, rep 2": 0.472, "Wolbachia per cell robust z, rep 3": -0.181}
{"target gene": "Cep290", "dsRNA no.": 1, "Wolbachia per cell robust z, rep 1": -3.02, "Wolbachia per cell robust z, rep 2": 0.786, "Wolbachia per cell robust z, rep 3": 1.08}
{"target gene": "Cep290", "dsRNA no.": 2, "Wolbachia per cell robust z, rep 1": 0.13, "Wolbachia per cell robust z, rep 2": 0.657, "Wolbachia per cell robust z, rep 3": -1.26}
{"target gene": "Jhbp3", "dsRNA no.": 1, "Wolbachia per cell robust z, rep 1": 1.24, "Wolbachia per cell robust z, rep 2": -2.15, "Wolbachia per cell robust z, rep 3": 1.17}
{"target gene": "asf1", "dsRNA no.": 1, "Wolbachia per cell robust z, rep 1": 0.877, "Wolbachia per cell robust z, rep 2": -1.21, "Wolbachia per cell robust z, rep 3": 2.29}
{"target gene": "asf1", "dsRNA no.": 2, "Wolbachia per cell robust z, rep 1": 1.58, "Wolbachia per cell robust z, rep 2": -0.496, "Wolbachia per cell robust z, rep 3": -1.72}
{"target gene": "CG30002", "dsRNA no.": 1, "Wolbachia per cell robust z, rep 1": -3.45, "Wolbachia per cell robust z, rep 2": -3.04, "Wolbachia per cell robust z, rep 3": -0.849}
{"target gene": "CG30002", "dsRNA no.": 2, "Wolbachia per cell robust z, rep 1": 0.653, "Wolbachia per cell robust z, rep 2": -0.344, "Wolbachia per cell robust z, rep 3": 0.564}
{"target gene": "PH4alphaSG2", "dsRNA no.": 1, "Wolbachia per cell robust z, rep 1": -0.121, "Wolbachia per cell robust z, rep 2": 0.331, "Wolbachia per cell robust z, rep 3": 0.371}
{"target gene": "Mur18B", "dsRNA no.": 1, "Wolbachia per cell robust z, rep 1": 0.173, "Wolbachia per cell robust z, rep 2": -0.124, "Wolbachia per cell robust z, rep 3": -0.0209}
{"target gene": "Mur18B", "dsRNA no.": 2, "Wolbachia per cell robust z, rep 1": -1.65, "Wolbachia per cell robust z, rep 2": -0.15, "Wolbachia per cell robust z, rep 3": -0.929}
{"target gene": "Mur18B", "dsRNA no.": 3, "Wolbachia per cell robust z, rep 1": 1.12, "Wolbachia per cell robust z, rep 2": 1.31, "Wolbachia per cell robust z, rep 3": 0.293}
{"target gene": "Tmtc3", "dsRNA no.": 1, "Wolbachia per cell robust z, rep 1": 0.141, "Wolbachia per cell robust z, rep 2": 0.781, "Wolbachia per cell robust z, rep 3": 0.311}
{"target gene": "CG18568", "dsRNA no.": 1, "Wolbachia per cell robust z, rep 1": -0.274, "Wolbachia per cell robust z, rep 2": -1.59, "Wolbachia per cell robust z, rep 3": 0.911}
{"target gene": "CG18568", "dsRNA no.": 2, "Wolbachia per cell robust z, rep 1": -0.874, "Wolbachia per cell robust z, rep 2": -1.98, "Wolbachia per cell robust z, rep 3": -1.14}
{"target gene": "Asx", "dsRNA no.": 1, "Wolbachia per cell robust z, rep 1": 1.12, "Wolbachia per cell robust z, rep 2": -1.77, "Wolbachia per cell robust z, rep 3": 0.491}
{"target gene": "COX7A", "dsRNA no.": 1, "Wolbachia per cell robust z, rep 1": 1, "Wolbachia per cell robust z, rep 2": -0.0404, "Wolbachia per cell robust z, rep 3": 0.48}
{"target gene": "Sec63", "dsRNA no.": 1, "Wolbachia per cell robust z, rep 1": 0.116, "Wolbachia per cell robust z, rep 2": -0.811, "Wolbachia per cell robust z, rep 3": 0.121}
{"target gene": "CG8814", "dsRNA no.": 1, "Wolbachia per cell robust z, rep 1": -0.15, "Wolbachia per cell robust z, rep 2": 0.462, "Wolbachia per cell robust z, rep 3": -1.19}
{"target gene": "CG8814", "dsRNA no.": 2, "Wolbachia per cell robust z, rep 1": 0.168, "Wolbachia per cell robust z, rep 2": -0.107, "Wolbachia per cell robust z, rep 3": -0.24}
{"target gene": "Clk", "dsRNA no.": 1, "Wolbachia per cell robust z, rep 1": 1.12, "Wolbachia per cell robust z, rep 2": 0.274, "Wolbachia per cell robust z, rep 3": -0.179}
{"target gene": "CG17224", "dsRNA no.": 1, "Wolbachia per cell robust z, rep 1": 0.408, "Wolbachia per cell robust z, rep 2": 1.08, "Wolbachia per cell robust z, rep 3": 0.0381}
{"target gene": "CG12620", "dsRNA no.": 1, "Wolbachia per cell robust z, rep 1": 0.241, "Wolbachia per cell robust z, rep 2": 0.323, "Wolbachia per cell robust z, rep 3": 0.809}
{"target gene": "CG12620", "dsRNA no.": 2, "Wolbachia per cell robust z, rep 1": -0.323, "Wolbachia per cell robust z, rep 2": 0.0362, "Wolbachia per cell robust z, rep 3": 0.909}
{"target gene": "CG42784", "dsRNA no.": 1, "Wolbachia per cell robust z, rep 1": 0.828, "Wolbachia per cell robust z, rep 2": -0.485, "Wolbachia per cell robust z, rep 3": 0.207}
{"target gene": "CG42784", "dsRNA no.": 2, "Wolbachia per cell robust z, rep 1": -0.326, "Wolbachia per cell robust z, rep 2": -0.674, "Wolbachia per cell robust z, rep 3": -0.691}
{"target gene": "CG42784", "dsRNA no.": 3, "Wolbachia per cell robust z, rep 1": -0.418, "Wolbachia per cell robust z, rep 2": -0.962, "Wolbachia per cell robust z, rep 3": -1.22}
{"target gene": "CG42784", "dsRNA no.": 4, "Wolbachia per cell robust z, rep 1": 0.586, "Wolbachia per cell robust z, rep 2": 1.68, "Wolbachia per cell robust z, rep 3": 0.271}
{"target gene": "CG42784", "dsRNA no.": 5, "Wolbachia per cell robust z, rep 1": -0.59, "Wolbachia per cell robust z, rep 2": -1.83, "Wolbachia per cell robust z, rep 3": -1.42}
{"target gene": "CG42784", "dsRNA no.": 6, "Wolbachia per cell robust z, rep 1": 1.11, "Wolbachia per cell robust z, rep 2": -0.0623, "Wolbachia per cell robust z, rep 3": 0.815}

Already shown: entries from further up.
{"target gene": "CG30002", "dsRNA no.": 2, "Wolbachia per cell robust z, rep 1": 0.653, "Wolbachia per cell robust z, rep 2": -0.344, "Wolbachia per cell robust z, rep 3": 0.564}
{"target gene": "PH4alphaSG2", "dsRNA no.": 1, "Wolbachia per cell robust z, rep 1": -0.121, "Wolbachia per cell robust z, rep 2": 0.331, "Wolbachia per cell robust z, rep 3": 0.371}
{"target gene": "Mur18B", "dsRNA no.": 1, "Wolbachia per cell robust z, rep 1": 0.173, "Wolbachia per cell robust z, rep 2": -0.124, "Wolbachia per cell robust z, rep 3": -0.0209}
